Experimental data: patent US20110190379A1 (priority 2008, published 2011)

Test system: F. graminearum
Assay: Arabidopsis detached leaf infection bioassay with chemical feeding treatments
Details: Col-0, etr1-1 and ein2-1 with versus without enhanced ethylene; data not shown

For `C=C` [ethylene], the “disease severity in Col-0 and ethylene insensitive mutants” value was “enhanced disease severity to a similar extent”.
